Several values for one entry are separate records, joined by “and”; a condition that tells them apart may be missing. Equal values may be shown once. Read-outs that look alike come from different tables or passages of the source.
Key:
CgBdf1 BD2 [1] = conditions: for Normalized (0 to 100%), WT, Average / Normalized (0 to 100%), YF mutant, Average: normalized peptide array signal; for Raw data, WT, Left / Raw data, YF mutant, Left: left replicate; for Raw data, WT, Rigt / Raw data, YF mutant, Right: right replicate
CgBdf1 BD2 [2] = biological target: CgBdf1 BD2 (Candida glabrata, UniProt Q6FWV7); conditions: read-out: IC50 CgBdf1 BD2; Table S3; estimate, preliminary single-replicate HTRF assay
CgBdf1 BD1 [3] = conditions: for Normalized (0 to 100%), WT, Average / Normalized (0 to 100%), YF mutant, Average: normalized peptide array signal; for Raw data, WT, Left / Raw data, YF mutant, Left: left replicate; for Raw data, WT, Rigt / Raw data, YF mutant, Right: right replicate
CgBdf1 BD1 [4] = biological target: CgBdf1 BD1 (Candida glabrata, UniProt Q6FWV7); test: HTRF assay, inhibition of H4ac4 peptide binding; set-up: species or system C. glabrata; conditions: read-out: IC50 CgBdf1 BD1; Table S3; estimate, preliminary single-replicate HTRF assay
[5] = test system: C. glabrata strains expressing WT and mutant Bdf1; test: Growth inhibition in liquid media, C. glabrata lab strains; conditions: Exp 1-3, Figure S9A
[6] = CgBdf1 BD2 WT, peptide array signal
[7] = CgBdf1 BD2 YF mutant, peptide array signal
[8] = CgBdf1 BD1 WT, peptide array signal
[9] = CgBdf1 BD1 YF mutant, peptide array signal

Chains of the proteins cited; added tags and fusions are not shown. Residues count along the entry.
UniProt Q6FWV7, 100-228 limits assumed: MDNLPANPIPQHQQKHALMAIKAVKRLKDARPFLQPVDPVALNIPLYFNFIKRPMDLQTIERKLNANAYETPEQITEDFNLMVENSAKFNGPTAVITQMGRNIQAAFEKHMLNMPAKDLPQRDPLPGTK
UniProt Q6FWV7, 269-391 limits assumed: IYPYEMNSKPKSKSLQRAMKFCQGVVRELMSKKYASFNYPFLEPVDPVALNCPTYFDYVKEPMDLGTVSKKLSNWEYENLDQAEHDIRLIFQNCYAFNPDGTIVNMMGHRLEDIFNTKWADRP

Row | Compound | Normalized (0 to 100%), WT, Average (CgBdf1 BD2 [1]; CgBdf1 BD2 WT) | Raw data, WT, Left (CgBdf1 BD2 [1]; [6]) | Raw data, WT, Rigt (CgBdf1 BD2 [1]; [6]) | Normalized (0 to 100%), YF mutant, Average (CgBdf1 BD2 [1]; CgBdf1 BD2 YF mutant) | Raw data, YF mutant, Left (CgBdf1 BD2 [1]; [7]) | Raw data, YF mutant, Right (CgBdf1 BD2 [1]; [7]) | IC50 (CgBdf1 BD2 [2]) | Normalized (0 to 100%), WT, Average (CgBdf1 BD1 [3]; CgBdf1 BD1 WT) | Raw data, WT, Left (CgBdf1 BD1 [3]; [8]) | Raw data, WT, Rigt (CgBdf1 BD1 [3]; [8]) | Normalized (0 to 100%), YF mutant, Average (CgBdf1 BD1 [3]; CgBdf1 BD1 YF mutant) | Raw data, YF mutant, Left (CgBdf1 BD1 [3]; [9]) | Raw data, YF mutant, Right (CgBdf1 BD1 [3]; [9]) | IC50 (CgBdf1 BD1 [4]) | OD at 600 nm ([5]; WT BDF1 strain) | OD at 600 nm ([5]; bdf1-bd1Δ strain) | OD at 600 nm ([5]; bdf1-bd2Δ strain) | other results
1 | COC(=O)c1ccccc1Nc1c(-c2ccc(O)cc2)nc2cnccn12 | 0.312% | 0 | 0.006238 | 0.675% | 0.009509 | 0.003988 | > 20 µM | 2.3% | 0.006301 | 0.0397 | 0.293% | 0.002776 | 0.003085 | > 20 µM | – | – | – | –
2 | CCC(=O)Nc1ccc(CCc2nc3ccc(C(=O)NCc4ccc(C)o4)cc3[nH]2)cc1 | 0.639% | 0.004679 | 0.00811 | 0.613% | 0.007362 | 0.004908 | > 20 µM | 3% | 0.0003151 | 0.05766 | 0.386% | 0.003085 | 0.004627 | 19 µM | – | – | – | –
3 | CCc1nn2c(CNC(=O)c3cccc(OC)c3)c(-c3ccccc3)nc2s1 | 0.858% | 0.005926 | 0.01123 | 0.598% | 0.008589 | 0.003374 | 6.5 µM | 18% | 0.1207 | 0.2328 | 0.478% | 0.006169 | 0.003393 | > 20 µM | – | – | – | –
4 | CC(=O)Nc1ccc(Cc2nc(-c3cccc(-c4ccn[nH]4)c3)no2)cc1 | – | – | – | – | – | – | – | – | – | – | – | – | – | > 20 µM | – | – | – | Raw data, WT (CgBdf1 BD2 [1]; peptide array signal, CgBdf1 BD2 WT, first replicate column): 0.007174; Normalized (0 to 100%), WT (CgBdf1 BD2 [1]; peptide array signal, CgBdf1 BD2 WT, mean of the two raw values): 1.59%; Raw data, WT (CgBdf1 BD2 [1]; peptide array signal, CgBdf1 BD2 WT, second replicate column): 0.02464; Raw data, YF mutant (CgBdf1 BD2 [1]; peptide array signal, CgBdf1 BD2 YF mutant, first replicate column): 0.007975; Normalized (0 to 100%), YF mutant (CgBdf1 BD2 [1]; peptide array signal, CgBdf1 BD2 YF mutant, mean of the two raw values): 0.429%; Raw data, YF mutant (CgBdf1 BD2 [1]; peptide array signal, CgBdf1 BD2 YF mutant, second replicate column): 0.0006135; Raw data, WT (CgBdf1 BD1 [3]; peptide array signal, CgBdf1 BD1 WT, first replicate column): 0.05167; Normalized (0 to 100%), WT (CgBdf1 BD1 [3]; peptide array signal, CgBdf1 BD1 WT, mean of the two raw values): 10%; Raw data, WT (CgBdf1 BD1 [3]; peptide array signal, CgBdf1 BD1 WT, second replicate column): 0.1389; Raw data, YF mutant (CgBdf1 BD1 [3]; peptide array signal, CgBdf1 BD1 YF mutant, first replicate column): 0.003085; Normalized (0 to 100%), YF mutant (CgBdf1 BD1 [3]; peptide array signal, CgBdf1 BD1 YF mutant, mean of the two raw values): 0.308%; Raw data, YF mutant (CgBdf1 BD1 [3]; peptide array signal, CgBdf1 BD1 YF mutant, second replicate column): 0.003085
5 | CC(=O)N1CCc2[nH]c3ccc(C(=O)Nc4ccc(N5CCOCC5)cc4)cc3c2C1 | 0.671% | 0.00811 | 0.005303 | 0.675% | 0.01012 | 0.003374 | – | – | – | – | – | – | – | – | 0.5087 and 0.5197 and 0.5267 | 0.2540 and 0.2480 and 0.2560 | 0.1487 and 0.1237 and 0.1367 | –
6 | COc1cc2nc(C(=O)N3CCCCC3)cc(Nc3ccc(Br)cc3)c2cc1OC | 0.873% | 0.009357 | 0.00811 | 0.782% | 0.01166 | 0.003988 | – | – | – | – | – | – | – | – | 0.6420 and 0.6500 and 0.6260 | 0.3943 and 0.3973 and 0.3593 | 0.2733 and 0.2603 and 0.2563 | –

Source: PMC11904993, “Humanized Candida and NanoBiT Assays Expedite Discovery of Bdf1 Bromodomain Inhibitors With Antifungal Potential” (Advanced Science, 2025)
